Compound potency records, mixed from different reports. Data source: NIAID ChemDB in PubChem.

Shared fields: whole-cell or culture tests; organism: Mycobacterium tuberculosis

A number after MIC or MFC names an inhibition level or a share of isolates.

compound | read by | read-out | tested at | strain | result
CC1CCc2ccccc2N1Cc1nc(-c2ccsc2)no1 | fluorescence | MIC |  |  | 2.2 µM
COC(=O)/C=C/c1cnc[nH]1 |  | MIC |  | H37Rv | >6.25 µg/mL
O=C(O)CC[N+](=O)[O-] | fluorescence | MIC |  |  | 74 µM
CN1CCN(c2ccncc2S(=O)(=O)N2CCCC2)CC1 | resazurin | MIC bound |  | H37Rv | >6.25 µg/mL
CC1(C)CCc2c(c3ccccc3c3[nH]c(-c4ccccc4)nc23)O1 | resazurin | MIC |  | H37Rv | >100 µg/mL
CC1(C)CCc2c(c3ccccc3c3[nH]c(-c4ccccc4Br)nc23)O1 | resazurin | MIC |  | ATCC 35338 | 15.3 µg/mL
NNC(=O)c1cnc(C2CCCC2)[nH]1 |  | inhibition | 6.25 µg/mL | H37Rv | 1%
COc1cc(/C=N/N=C(\N)c2ccccn2)cc(OC)c1 |  | MIC |  | H37Rv | 256 µg/mL
CC1CCC2C(C1)c1c(c3ccccc3c3nc4ccccc4nc13)OC2(C)C | resazurin | MIC |  | H37Rv | 3.12 µg/mL
O=C(CO)Nc1nccs1 |  | MIC |  | H37Rv | >100 µg/mL
COc1cc2ccnc3c2c(c1OC(=O)c1cc(F)ccc1F)N(C)C=C3 |  | MIC |  | H37Rv | >128 µg/mL
CC1COc2c(N3CCN(C)CC3)c(F)cc3c(=O)c(C(=O)O)cn1c23 |  | MIC50 |  | 18 strains | 1 µg/mL
Cc1nn(C(=O)c2ccncc2)c(C)c1N=Nc1ccccc1[N+](=O)[O-] | BACTEC | inhibition | 12.5 µg/mL | H37Rv | 6%
Fc1ccc(-c2nnc(CSc3nnc(-c4ccco4)o3)o2)cc1 | fluorescence | inhibition | 20 µM |  | 82%
CCCCCCCCCCCCCCN(CCO)CCO |  | MIC |  | H37Rv | 12.5 µg/mL
Cc1ccc(NC(=O)c2cncc(Cl)n2)cc1I |  | MIC |  | H37Rv | 8 µg/mL
CN=c1sc2c(n1C)C(=O)c1ccccc1C2=O | BACTEC | MIC bound |  | H37Rv | ≤12.5 µg/mL
CCCCCCCCCCCCN(CCO)CCO |  | MIC |  | H37Rv | 50 µg/mL
CNCCCN1c2ccccc2CCc2ccccc21 |  | MIC |  |  | >25 µg/mL
CN(C)c1ccc(/C=N/NC(=O)c2ccccc2NC(=O)c2ccccc2Cl)cc1 | BACTEC | MIC bound |  | H37Rv | >12.5 µg/mL
COc1cc2ccnc3c2c(c1OC(=O)c1ccccc1C)N(C)C=C3 |  | MIC |  | H37Rv | >128 µg/mL
O=C(N/N=C/c1cccs1)c1ccc(Br)cc1 |  | inhibition | 6.25 µg/mL | H37Rv | 0%
O=C(O)c1cnc(C2C3CC4CC(C3)CC2C4)[nH]1 |  | MIC |  | H37Rv | >6.25 µg/mL
N/C(=N/N=C/c1ccccc1Br)c1ccccn1 |  | MIC |  | H37Rv | 8 µg/mL
Cc1ccc(NC(=O)c2cnccn2)cc1I |  | MIC |  | H37Rv | <2 µg/mL
COc1ccc(-c2nc(-c3cnccn3)n(Cc3ccccc3)n2)cc1 | BACTEC | inhibition | 12.5 µg/mL | H37Rv | 57%
CCCc1cc(=O)oc2c(C(=O)CC)c(N3CCN(Cc4ccc(F)cc4)CC3)c3c(c12)OC(C)(C)C=C3 | turbidity | MIC90 |  | H37Rv | >26 µg/mL
COc1nc2ccc(Br)cc2cc1[C@@H](c1ccccc1)[C@@](O)(CCN(C)C)c1cccc2ccccc12 | resazurin / fluorescence | MIC |  | H37Rv | 0.1 µg/mL
COc1cc2ccnc3c2c(c1OC(=O)c1ccc(C(C)(C)C)cc1)N(C)C=C3 |  | MIC |  | H37Rv | >128 µg/mL
COc1cc(-c2oc3cc(O)cc(O)c3c(=O)c2O[C@@H]2C[C@H](CO)[C@@H](O)[C@H](O)[C@H]2O)ccc1O |  | MIC |  | H37Rv | >128 µg/mL
CC1(C)CCC2=C(O1)c1ccccc1C(=O)C2=O | resazurin | MIC |  | ATCC 35338 | 1.56 µg/mL
CC[C@H](/C=C/[C@@H](C)[C@H]1CC[C@H]2[C@@H]3C(=O)C=C4C[C@@H](O)CC[C@]4(C)[C@H]3CC[C@]12C)C(C)C |  | MIC |  | H37Rv | 1 µg/mL
C/C=C/C/C=C/CCC(=O)[C@H]1O[C@H]1C(N)=O |  | MIC |  | 90-0216 (DRUG-SUS) | 2.5 µg/mL
COc1ccc2c(c1)n([O-])c1cc(C#N)ccc1[n+]2=O |  | MIC |  | CS-R | 12.5 µg/mL
CC(C)(C)c1ncc(C(=O)Nc2ccc(C(F)(F)F)cc2)nc1Cl |  | MIC |  | H37Rv | 8 µg/mL
CN[C@@H]1[C@H](O[C@H]2[C@H](O[C@H]3[C@H](O)[C@@H](O)[C@H](N=C(N)N)[C@@H](O)[C@@H]3N=C(N)N)O[C@@H](C)[C@]2(O)C=O)O[C@@H](CO)[C@H](O)[C@H]1O |  | MIC |  | H37Ra | 1.5 µg/mL
COc1cccc(C(=O)Oc2c(OC)cc3ccnc4c3c2N(C)C=C4)c1 |  | MIC |  | H37Rv | >128 µg/mL
CCCCCCCCCCCCNC(C)(C)CO |  | MIC |  | H37Rv | 12.5 µg/mL
CC(C)(C)c1ncc(C(=O)O)[nH]1 |  | inhibition | 6.25 µg/mL | H37Rv | 0%
CN(C)c1ccc(NN=C2SC(=Nc3ccccc3)C(=Nc3ccccc3)S2)cc1 | resazurin | MIC bound |  | H37Rv | >6.25 µg/mL
NNC(=O)c1ccncc1 | resazurin | MIC |  | ATCC 35338 | <0.06 µg/mL
CC(=O)NC[C@H]1CN(c2ccc(N3CCOCC3)c(F)c2)C(=O)O1 | fluorescence | MIC |  |  | 3.4 µM
CC[C@H]1OC(=O)[C@H](C)[C@@H](O[C@H]2C[C@@](C)(OC)[C@@H](O)[C@H](C)O2)[C@H](C)[C@@H](O[C@@H]2O[C@H](C)C[C@H](N(C)C)[C@H]2O)[C@](C)(OC)C[C@@H](C)C(=O)[C@H](C)[C@@H](O)[C@]1(C)O |  | MIC |  | H37Ra | 1 µg/mL
N/C(=N\N=C\c1ccc(Cl)c([N+](=O)[O-])c1)c1ccccn1 |  | MIC |  | H37Rv | >256 µg/mL
C1CCC(CNCCNCC2CCCC2)C1 |  | MIC |  | H37Rv | 8 µg/mL
CCCN(Cc1nnc(-c2ccco2)o1)C(=O)Cc1c(Cl)cccc1Cl | fluorescence | inhibition | 20 µM |  | 5%
COc1ccccc1O |  | MIC |  | H37Rv | >128 µg/mL
CC1=NN(c2ccccc2)C(=O)C1N=Nc1ccc(S(=O)(=O)Nc2ncccn2)cc1 | BACTEC | MIC bound |  | H37Rv | >12.8 µg/mL
CCOC(=O)c1cnc(C(C)C)[nH]1 |  | MIC |  | H37Rv | >6.25 µg/mL
CN(C)CCCN1c2ccccc2Sc2ccc(Cl)cc21 |  | MIC |  | 22 isolates | 2 µg/mL
COCCN(C1CCN(CC2C(c3ccncc3)=Nc3c(C)cccc32)C1)S(C)(=O)=O |  | MIC |  |  | 200 µM
CC[C@@H](CO)NCCN[C@@H](CC)CO |  | MIC |  | H37Rv | 1 µg/mL
CCN(CC)CCNc1ccc(C)c2sc3cc(Cl)ccc3c(=O)c12 | BACTEC | MIC bound |  | H37Rv | ≤12.5 µg/mL
COc1ccccc1/C=N/N=C(/N)c1ccccn1 |  | MIC |  | H37Rv | 16 µg/mL
CCCCCCCCCCCCNCCCO |  | MIC |  | H37Rv | 12.5 µg/mL
O=C(N/N=C/c1cccc(Cl)c1)c1ccc(F)cc1 |  | EC50 |  | H37Rv | <6.25 µg/mL
c1csc(-c2nnc(COc3ccc4c(c3)OCO4)o2)c1 | fluorescence | MIC |  |  | 1.5 µM
CCc1cc(C(N)=S)ccn1 |  | MIC |  | H37Ra | 1.25 µg/mL
C[C@@H]1CN(c2c(F)c(N)c3c(=O)c(C(=O)O)cn(C4CC4)c3c2F)C[C@H](C)N1 |  | MIC |  | 5 strains (ofloxacin-resistant) | 0.63–2.5 µg/mL
COC(=O)C1(O)C(=O)NC2=C1C(=O)c1ccccc1C2=O | resazurin | MIC bound |  | H37Rv | >6.25 µg/mL
O=C(N=Nc1c(O)[nH]c2ccccc12)c1ccc(F)cc1 |  | inhibition | 6.25 µg/mL | H37Rv | 0%
CCOC(=O)c1cnc[nH]1 |  | inhibition | 6.25 µg/mL | H37Rv | 21%
C(CNCC1CCCC1)CNCC1CCCC1 |  | MIC |  | H37Rv | 8 µg/mL
O=C(/C=C/c1ccc(O)c(O)c1)NCC(=O)NC(Cc1ccccc1)C(=O)O | BACTEC | inhibition | 12.5 µg/mL | H37Rv | 26%
N/C(=N\N=C\c1ccc([N+](=O)[O-])cc1)c1ccccn1 |  | MIC |  | H37Rv | >256 µg/mL
CN(C)c1nnc([N+](=O)[O-])s1 | BACTEC | inhibition | 12.5 µg/mL | H37Rv | 68%
N/C(=N/N=C/c1ccc(Br)cc1)c1ccccn1 |  | MIC |  | H37Rv | 16 µg/mL
COCCN(C1CCN(CC2C(c3ccccc3)=[N+](C)c3c(C)cccc32)C1)S(C)(=O)=O |  | MIC |  |  | 1.5 µM
CC(=O)C(=N\O)/C(C)=N/NC(=O)c1ccncc1 | BACTEC | inhibition | 12.5 µg/mL | H37Rv | 99%
Cc1cccc2c1N=C(c1ccccc1)C2CN1CCC(NS(C)(=O)=O)C1 |  | MIC |  | Clinical isolate | 3.3–12.5 µM
COc1cc([C@H]2c3cc(O)c(OC)cc3C[C@@H]3C(=O)OC[C@H]23)ccc1O | BACTEC | MIC |  | H37Rv | ≥12.5 µg/mL
CC(C)c1ncc(C(=O)NN)[nH]1 |  | inhibition | 6.25 µg/mL | H37Rv | 0%
CC1COc2c(N3CCN(C)CC3)c(F)cc3c(=O)c(C(=O)O)cn1c23 |  | MIC50 |  | 22 isolates | 1 µg/mL
C[C@H]1COc2c(N3CCN(C)CC3)c(F)cc3c(=O)c(C(=O)O)cn1c23 |  | MIC |  | 19 strains | 16 µg/mL
Cc1cc(C)nc(/N=C(\N)Nc2ccc(S(=O)(=O)NC(=O)Nc3ccccc3)cc2)n1 | BACTEC | MIC bound |  | H37Rv | >12.5 µg/mL
CC[C@@H](CO)NCCN[C@@H](CC)CO |  | MIC |  | H37Ra | 1.88 µg/mL
Cc1cccn2c(=O)c3cc(C(=O)NCc4ccco4)c(=N)n(CCCO)c3nc12 |  | MIC |  | H37Rv (ATCC 27294) | 110 µM
CN1CCCCC1CCN1c2ccccc2Sc2ccc(S(C)=O)cc21 |  | MIC |  | 5 isolates (polydrug resistance) | 4 µg/mL
Cc1cccc(NC(=O)c2cncc(Cl)n2)c1Br |  | MIC |  | H37Rv | >128 µg/mL
N/C(=N/N=C/c1cccc(Br)c1)c1ccccn1 |  | MIC |  | H37Rv | 64 µg/mL
O=C1C(n2ccc(=O)[nH]c2=O)CCN1CCCl | BACTEC | MIC |  | H37Rv | ≥12.8 µg/mL
CCCCCc1ccc(C(=O)Oc2c(OC)cc3ccnc4c3c2N(C)C=C4)cc1 |  | MIC |  | H37Rv | >128 µg/mL
Cc1cccc2c(CN3CC[C@H](NS(C)(=O)=O)C3)c(-c3ccccc3)[nH]c12 |  | MIC |  |  | 3.1 µM
Oc1ccc2c(c1)OC[C@]1(O)Cc3cc(O)c(O)cc3[C@H]21 | BACTEC | inhibition | 128 µg/mL | H37Rv | 88%
CO[C@H]1/C=C/O[C@@]2(C)Oc3c(C)c(O)c4c(O)c(c(/C=N/N5CCN(C)CC5)c(O)c4c3C2=O)NC(=O)/C(C)=C\C=C\[C@H](C)[C@H](O)[C@@H](C)[C@@H](O)[C@@H](C)[C@H](OC(C)=O)[C@@H]1C |  | MIC |  | 90-0145 (DRUG-SUS) | 0.4 µg/mL
Cc1cc2c(c(Br)c1O)Oc1c(cc(C)c(O)c1Br)C21OC(=O)c2ccccc21 | BACTEC | inhibition | 12.5 µg/mL | H37Rv | 7%
Cc1cccc(NC(=O)c2cnc(C(C)(C)C)c(Cl)n2)c1Br |  | MIC |  | H37Rv | 16 µg/mL
O=C(c1ccco1)N(C(=S)N1CCN(c2ccccc2)CC1)C1CCCCC1 | resazurin | MIC |  | H37Rv | >6.25 µg/mL
O=C(N/N=C/c1ccc([N+](=O)[O-])s1)c1ccc([N+](=O)[O-])cc1 |  | inhibition | 6.25 µg/mL | H37Rv | 98%
CSC(=S)NNC(C)c1nccc2ccccc12 |  | MIC |  | INH-r | 3.2 µg/mL
O=C(O)/C=C/c1cnc[nH]1 |  | MIC |  | H37Rv | >6.25 µg/mL

Repeating the first 11 entries:

CC1CCc2ccccc2N1Cc1nc(-c2ccsc2)no1 ; read by: fluorescence ; read-out: MIC ; result: 2.2 µM
COC(=O)/C=C/c1cnc[nH]1 ; read-out: MIC ; strain: H37Rv ; result: >6.25 µg/mL
O=C(O)CC[N+](=O)[O-] ; read by: fluorescence ; read-out: MIC ; result: 74 µM
CN1CCN(c2ccncc2S(=O)(=O)N2CCCC2)CC1 ; read by: resazurin ; read-out: MIC bound ; strain: H37Rv ; result: >6.25 µg/mL
CC1(C)CCc2c(c3ccccc3c3[nH]c(-c4ccccc4)nc23)O1 ; read by: resazurin ; read-out: MIC ; strain: H37Rv ; result: >100 µg/mL
CC1(C)CCc2c(c3ccccc3c3[nH]c(-c4ccccc4Br)nc23)O1 ; read by: resazurin ; read-out: MIC ; strain: ATCC 35338 ; result: 15.3 µg/mL
NNC(=O)c1cnc(C2CCCC2)[nH]1 ; read-out: inhibition ; tested at: 6.25 µg/mL ; strain: H37Rv ; result: 1%
COc1cc(/C=N/N=C(\N)c2ccccn2)cc(OC)c1 ; read-out: MIC ; strain: H37Rv ; result: 256 µg/mL
CC1CCC2C(C1)c1c(c3ccccc3c3nc4ccccc4nc13)OC2(C)C ; read by: resazurin ; read-out: MIC ; strain: H37Rv ; result: 3.12 µg/mL
O=C(CO)Nc1nccs1 ; read-out: MIC ; strain: H37Rv ; result: >100 µg/mL
COc1cc2ccnc3c2c(c1OC(=O)c1cc(F)ccc1F)N(C)C=C3 ; read-out: MIC ; strain: H37Rv ; result: >128 µg/mL

MIC bound comes from a single tested concentration. Blank or dashed fields: not listed here. ECn is the concentration giving n% inhibition of infection, replication or growth. Inhibition is in % at the dose shown (toxicity tests: loss of growth or viability). Lines come from different laboratories, so protocols vary. Two numbers with a dash give a range or band.